From US20240327339A1, “COMPOSITIONS AND METHODS FOR TREATING AND PREVENTING VIRAL INFECTIONS” (priority 2021, published 2024)

Tested on: A/WSN/33
Assay: Virus resistance test, A/WSN/33 infected A549 cells
Settings: A549 cells treated 72 h, then passaged; repeated twice

**Q.** With `CCCN(CCC)S(=O)(=O)c1ccc(C(=O)O)cc1` [Probenecid, 4-[(dipropylamino)sulfonyl] benzoic acid] as the compound, how does the “virus replication after passage of treated virus (resistance)” value read?
**A.** Its value is “No detectable virus replication was identified”.
